Record: PubChem BioAssay AID504761 (Drosophila RNAi Screening Center, 2011)
The deposit covers about 22,000 reagents; shown is an unselected part of those with a known target gene and a result. Over the whole deposit, 116 (0.52%) are marked active. 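Calls depend on retest data that are not deposited; infection was ranked per plate without normalising between plates; the unit of the infection score is not given.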 Raw values vary from plate to plate and are shown uncorrected. Entries without a mark were called inactive. The numbers tell different reagents against one gene apart. Not given: the amount of reagent, the time to read-out.

Purpose: 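Genome-wide fly cell screen for genes dengue virus requires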 (primary screen)
System: D.Mel-2 cells from Drosophila
Knock-down reagent: long dsRNA against Drosophila genes
Conditions: infection with dengue virus type 2; dose and infection time not stated
Measured: 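Cells stained for dengue envelope protein and imaged; percent of infected cells per well on duplicate plates, ranked by infection, with stained nuclei counted for cell number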
Direction: infection score: higher = more virus-infected cells; cell count: higher = more cells in the well
Active means: 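Low infection ranks in the two replicates (chance level up to 0.065) followed by a retest with a 1.5-fold or larger significant decrease, p below 0.05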
Meaning of the calls: active = confirmed: knock-down lowers infection; inactive = not picked or not confirmed

no.	gene knocked down	reagent no.	infection score, replicate 1	infection score, replicate 2	cell count, replicate 1	cell count, replicate 2
1	Tnks (tankyrase)	1	9.42	4.17	5772	5809
2	CG10431	1	4.2	4.75	5787	6612
3	CG1537	1	8.66	16.2	4490	6280
4	CkIIalpha-i3 (CKII-alpha subunit interactor-3)	1	9.03	12.8	6014	3955
5	Pdp (Pyruvate dehydrogenase phosphatase)	1	3.32	0.45	6678	220
6	Pdp (Pyruvate dehydrogenase phosphatase)	2	3.6	7.43	6390	6557
7	Socs36E (Suppressor of cytokine signaling at 36E)	1	36.6	28.2	6232	6544
8	Socs36E (Suppressor of cytokine signaling at 36E)	2	16.4	6.91	5316	6574
9	CG12862	1	16.2	2.25	5787	6703
10	Obp51a (Odorant-binding protein 51a)	1	1.42	0.67	5711	6400
11	sqd (squid)	1	3.35	20.9	5829	5589
12	sqd (squid)	2	4.01	3.13	6863	6961
13	sqd (squid)	3	17.8	10.6	5909	5883
14	Amyrel (Amylase related)	1	15.2	11.2	6197	4032
15	CG33500	1	0.56	2.85	5669	6031
16	nxf4 (nuclear export factor 4)	1	8.23	9.35	6594	6409
17	Adss (Adenylosuccinate synthetase)	1	23.5	13.4	6411	6686
18	Adss (Adenylosuccinate synthetase)	2	4.33	4.21	6496	5343
19	Pdf (Pigment-dispersing factor)	1	3.94	7.96	6473	5993
20	Usp30 (Ubiquitin specific protease 30)	1	0.58	0.98	6895	6830
21	Usp30 (Ubiquitin specific protease 30)	2		23.2	334	3616
22	CG31871	1	3.01	0.96	6776	7194
23	CG31871	2	3.69	4.34	6746	6704
24	CG31871	3	5.26	6.74	6041	5754
25	betaggt-I (beta subunit of type I geranylgeranyl transferase)	1	9.07	0.8	5413	498
26	TkR99D (Tachykinin-like receptor at 99D)	1	3.84	10.4	6460	5668
27	CG6729	1	8.43	6.37	6485	6448
28	CG6729	2	1.4	6.27	5799	4303
29	CG6729	3	17.7	25.1	5555	5284
30	Spn88Eb (Serpin 88Eb)	1	6.08	9.53	6974	6664
31	CG12835 (retired record)	1	10.4	15.9	5576	6157
32	CG12835 (retired record)	2	3.58	22.1	6974	6154
33	CG30288	1	4.62	1.97	6795	6902
34	CG30288	2	6.86	11.3	6560	5821
35	Or7a (Odorant receptor 7a)	1	6.83	5.54	6606	6982
36	Ostgamma (Oligosaccharide transferase gamma subunit)	1	3.68	3.03	6689	6409
37	CR42545 (pseudo)	1	3.67	6.99	871	1059
38	CG14036	1	5.09	4	5526	6324
39	Nt5b (5' nucleotidase B)	1	0.95	6.37	6598	6941
40	Nt5b (5' nucleotidase B)	2	26.9	7.55	5442	5802
41	Nt5b (5' nucleotidase B)	3	2.67	2.34	5890	5930
42	Nt5b (5' nucleotidase B)	4	8.46	3.39	6290	6528
43	Nt5b (5' nucleotidase B)	5	16.3	11.2	4975	5122
